The target in one assay is DEN2V NS2B-NS3pro (Dengue virus type 2, UniProt Q91H74). The assay is described as follows: Steady-state kinetics of inhibitors of DEN2V NS2B-NS3pro (Boc-GRR-AMC substrate, Dynafit). The format is biochemical, Dengue 2 virus.
In the next assay the target is WNV NS2B-NS3pro (West Nile virus, UniProt P06935). Description: Steady-state kinetics of inhibitors of WNV NS2B-NS3pro. Particulars: read-out: Ki1 (from biochemical protease inihibition experiments) West Nile virus NS2B-NS.

Protein sequences, listed by entry. Tags and fused reporters are not part of them. Residues count along the entry.
UniProt P06935, 1502-1679 limits assumed: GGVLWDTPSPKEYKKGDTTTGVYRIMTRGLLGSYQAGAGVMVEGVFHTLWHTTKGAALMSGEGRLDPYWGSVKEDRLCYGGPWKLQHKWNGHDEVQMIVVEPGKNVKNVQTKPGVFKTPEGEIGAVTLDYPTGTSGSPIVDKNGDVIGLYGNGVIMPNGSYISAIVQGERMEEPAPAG
UniProt P06935, 1424-1463 partner limits assumed: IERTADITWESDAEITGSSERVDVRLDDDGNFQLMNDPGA

Read-outs that look alike come from different tables or passages of the source.

Regarding `Cc1cc(O)c2c(c1)C(=O)c1cc(O)cc(O)c1C2=O`, the Ki at DEN2V NS2B-NS3pro (read-out: DEN2V NS2B-NS3 Ki1, second series analogs) is 508 µM; on DEN2V NS2B-NS3pro (read-out: Ki1 (from biochemical protease inihibition experiments) Dengue 2 virus NS2B-NS3) it was 508 µM; on WNV NS2B-NS3pro, 1040 µM. The “DEN2V NS2B-NS3 Mechanism” value on DEN2V NS2B-NS3pro (second series analogs) is given as “Competitive”.
